Results of unrelated studies side by side (data: NIAID ChemDB).

Common to all: tests in culture; agent: Candida albicans

a–b is a range or a potency band. ECn is the concentration giving n% inhibition of infection, replication or growth. Lines come from different laboratories, so protocols vary. MIC50, MIC90 and the like: level of inhibition, or share of isolates inhibited. Blank or dashed fields: not listed here.

compound | strain or isolate | endpoint | method | value
CCC(C)CC(C)CCCCCCCCC(=O)N[C@H]1C[C@@H](O)[C@H](NCCN)NC(=O)[C@@H]2[C@@H](O)CCN2C(=O)[C@H]([C@H](O)CCN)NC(=O)[C@H]([C@H](O)[C@@H](O)c2ccc(O)cc2)NC(=O)[C@@H]2C[C@@H](O)CN2C(=O)[C@H]([C@@H](C)O)NC1=O | 1954 | MIC | broth dilution | 0.25 µg/mL
O=C/C=C/c1ccccc1 | Clinical isolates | MIC90 | - | 125–450 µg/mL
C[C@@H]1CCC2(OC1)O[C@H]1C[C@H]3[C@@H]4CC=C5C[C@@H](C6O[C@H](CO)[C@@H](O[C@@H]7O[C@@H](C)[C@H](O)[C@@H](O)[C@H]7O)[C@H](O)[C@H]6O[C@@H]6O[C@@H](C)[C@H](O)[C@@H](O)[C@H]6O)CC[C@]5(C)[C@H]4CC[C@]3(C)[C@H]1[C@@H]2C | - | MIC | - | 12.5 µg/mL
CC1NCCc2cc(O)c(O)cc21 | IFO1061 | MIC | - | >500 µg/mL
COC(=O)C#CC(=O)OC | ATCC 10231 | MIC | - | >100 µg/mL
CCCCCCCCCCCCCCCC[n+]1ccccc1 | CCH442 | MIC | - | 1.9 µM
CCCCCN(CCCCC)Cc1cccc(/C=N/NC(=O)c2ccncc2)c1N | MTCC 8184 | MIC | - | 3.12 µg/mL
COc1ccc(Cc2cc3cc(OC)c(OC)cc3c[n+]2C)cc1OC | IFO1061 | MIC | - | >500 µg/mL
CCC(C)CC(C)CCCCCCCCC(=O)N[C@H]1C[C@@H](O)[C@H](NCCN)NC(=O)[C@@H]2[C@@H](O)CCN2C(=O)[C@H]([C@H](O)CCN)NC(=O)[C@H]([C@H](O)[C@@H](O)c2ccc(O)cc2)NC(=O)[C@@H]2C[C@@H](O)CN2C(=O)[C@H]([C@@H](C)O)NC1=O | - | Geometric mean MIC | - | 0.32 µg/mL
Cn1c(=O)cc(Oc2nc(Nc3ccc(C#N)cc3)nc(Nc3ccccn3)n2)c2ccccc21 | MTCC 183 | MIC | agar | >500 µg/mL
C[C@@H]1[C@H](O)[C@@H](C)/C=C/C=C/CC/C=C/C=C/C=C/C=C/C(O[C@H]2O[C@H](C)[C@@H](O)[C@H](N)[C@@H]2O)CC2O[C@](O)(CC(O)C(O)CCC(O)CC(O)CC(O)CC(=O)O[C@H]1C)CC(O)C2C(=O)O | ATCC 40227 | MIC100 | broth dilution | >1024 µg/mL
CCCCCCCC[n+]1ccccc1.[Cl-] | CCH442 | MIC | - | >400 µM
CN(C/C=C/C#CC(C)(C)C)Cc1cccc2ccccc12 | 179 isolates | Mean MIC | - | 1.2 µg/mL
C[C@@H]1[C@H](O)[C@@H](C)/C=C/C=C/CC/C=C/C=C/C=C/C=C/C(O[C@H]2O[C@H](C)[C@@H](O)[C@H](N)[C@@H]2O)CC2O[C@](O)(CC(O)C(O)CCC(O)CC(O)CC(O)CC(=O)O[C@H]1C)CC(O)C2C(=O)O | - | MIC | agar diffusion | 12 µg/mL
CSc1ncc([N+](=O)[O-])n1C | 18 isolates | MIC | - | 35 µg/mL
Cc1c2cc(OCc3ccccc3)c(OCc3ccccc3)cc2cc[n+]1C | IFO1061 | MIC | - | 250 µg/mL
CCC(C)CC(C)CCCCCCCCC(=O)NC1C[C@@H](O)[C@@H](O)NC(=O)[C@@H]2[C@@H](O)CCN2C(=O)[C@H]([C@@H](O)CC(N)=O)NC(=O)[C@H]([C@H](O)[C@@H](O)c2ccc(OP(=O)([O-])O)cc2)NC(=O)[C@@H]2C[C@@H](O)CN2C(=O)[C@H]([C@H](C)O)NC1=O.[Na+] | MY1055 | MFC | - | 2 µg/mL
CC(C/C=C/C=C/CC/C=C\C=C\CCC(C)(C)C)C(O)C(O)C(O)C(O)C(O)C1OC(=O)C(O)C1O | 83-2-14 (Juntendo) | MIC | - | 12.5 µg/mL
Nc1c(/C=N/NC(=O)c2ccncc2)cccc1CN1CCNCC1 | MTCC 8184 | MIC | - | 3.12 µg/mL
CN(C/C=C/C#CC(C)(C)C)Cc1cccc2ccccc12 | - | MIC95 | - | 50 µg/mL
C[C@@H]1[C@H](O)[C@@H](C)/C=C/C=C/CC/C=C/C=C/C=C/C=C/C(O[C@H]2O[C@H](C)[C@@H](O)[C@H](N)[C@@H]2O)CC2O[C@](O)(CC(O)C(O)CCC(O)CC(O)CC(O)CC(=O)O[C@H]1C)CC(O)C2C(=O)O | MTCC 8184 | MIC | - | 0.25 µg/mL
COc1ccc(C=O)cc1 | 1131 | MIC90 | agar diffusion / agar | 300–500 µM
COC(=O)/C=C(/F)C(=O)OC | ATCC 10231 | MIC | - | >100 µg/mL
CCC(C)n1ncn(-c2ccc(N3CCN(c4ccc(OC[C@H]5CO[C@](Cn6cncn6)(c6ccc(Cl)cc6Cl)O5)cc4)CC3)cc2)c1=O | Isogenic isolate 13 Erg11 (4-5X) R467K | MIC | - | 0.06 µg/mL
C[C@@H]1CCC2(OC1)O[C@H]1C[C@H]3[C@@H]4CC=C5C[C@@H](C6O[C@H](CO)[C@@H](O[C@@H]7O[C@@H](C)[C@H](O[C@H]8O[C@@H](C)[C@H](O)[C@@H](O)[C@H]8O)[C@@H](O)[C@H]7O)[C@H](O)[C@H]6O[C@@H]6O[C@@H](C)[C@H](O)[C@@H](O)[C@H]6O)CC[C@]5(C)[C@H]4CC[C@]3(C)[C@H]1[C@@H]2C | - | MIC | - | 100 µg/mL
CO[C@H]1CCCC[C@@H](c2ccccc2)OC(=O)[C@@H](C)[C@@]2(O)O[C@H]([C@@H](C)[C@H](O)[C@H]2OC)[C@@H](C)/C=C/[C@H]1OC | CBS 1893 | MIC | - | 0.06 µg/mL
C[C@@H]1[C@H](O)[C@@H](C)/C=C/C=C/C=C/C=C/C=C/C=C/C=C/[C@H](O[C@@H]2O[C@H](C)[C@@H](O)[C@H](N)[C@@H]2O)C[C@@H]2O[C@](O)(C[C@@H](O)C[C@@H](O)[C@H](O)CC[C@@H](O)C[C@@H](O)CC(=O)O[C@H]1C)C[C@H](O)[C@H]2C(=O)O | ATCC 10231 | MFC | broth dilution | 9.8 µg/mL
CCOC(=O)C1=C(N)N(c2nc(-c3ccc(Cl)cc3)cs2)C2=C(C(=O)CCC2)C1c1cc2cc(C)ccc2nc1F | MTCC 227 | MIC | broth dilution | 200 µg/mL
O=c1c(O)c(-c2ccc(O)c(O)c2)oc2cc(O)cc(O)c12 | ATCC 10231 | MIC | broth dilution | 125 µg/mL
C=C(Cc1ccc(O)cc1)C(=C)Cc1ccc(OC)cc1O | - | MIC | - | 10 µg/mL
CCCCCCCCCOCCCC(=O)O | - | MIC | - | 500 µM
CCCCCC1NCCc2cc(O)c(O)cc21 | IFO1061 | MIC | - | >500 µg/mL
OC(Cn1cncn1)(Cn1cncn1)c1ccc(F)cc1F | MTCC 227 | MIC | broth dilution | >100 µg/mL
CCN(CC)Cc1cccc(/C=N/NC(=O)c2ccncc2)c1N | MTCC 8184 | MIC | - | 12.5 µg/mL
N#CC1=C(N)N(c2nc(-c3ccc(Cl)cc3)cs2)C2=C(C(=O)CCC2)C1c1cc2ccccc2nc1F | MTCC 227 | MIC | broth dilution | 500 µg/mL
Cn1c(=O)cc(Oc2nc(Nc3ccc(C#N)cc3)nc(Nc3nc4ccc(Br)cc4s3)n2)c2ccccc21 | MTCC 183 | MIC | agar | 25 µg/mL
N#CC1=C(N)N(c2nc(-c3ccc(O)cc3)cs2)C2=C(C(=O)CCC2)C1c1cc2cc(Cl)ccc2nc1F | MTCC 227 | MIC | broth dilution | 500 µg/mL
Cn1c(=O)cc(Oc2nc(Nc3ccc(C#N)cc3)nc(Nc3nc4ccc(F)cc4s3)n2)c2ccccc21 | MTCC 183 | MIC | agar | 25 µg/mL
C=C(Cc1ccc(O)cc1)C(O)(CO)Cc1ccc(OC)cc1O | - | MIC | - | 80 µg/mL
Cn1c(=O)cc(Oc2nc(Nc3ccc(C#N)cc3)nc(Nc3nc4ccc(Cl)cc4s3)n2)c2ccccc21 | MTCC 183 | MIC | agar | 50 µg/mL
Nc1ccccc1/C=N/NC(=O)c1ccncc1 | MTCC 8184 | MIC | - | 12.5 µg/mL
COC(=O)[C@@H](Br)[C@@H](F)C(=O)OC | ATCC 10231 | MIC | - | 70 µg/mL
C[C@@H]1[C@H](O)[C@@H](C)/C=C/C=C/CC/C=C/C=C/C=C/C=C/C(O[C@H]2O[C@H](C)[C@@H](O)[C@H](N)[C@@H]2O)CC2O[C@](O)(CC(O)C(O)CCC(O)CC(O)CC(O)CC(=O)O[C@H]1C)CC(O)C2C(=O)O | MTCC 227 | MIC | broth dilution | 100 µg/mL
Cn1c(=O)cc(Oc2nc(Nc3ccc(C#N)cc3)nc(Sc3nc4ccccc4s3)n2)c2ccccc21 | MTCC 183 | MIC | agar | 500 µg/mL
CCCOC(=O)/C=C\C(=O)OCCC | ATCC 10231 | MIC | - | >100 µg/mL
Nc1c(/C=N/NC(=O)c2ccncc2)cccc1CN1CCCCC1 | MTCC 8184 | MIC | - | 12.5 µg/mL
CCOC(=O)C1=C(N)N(c2nc(-c3ccccc3)cs2)C2=C(C(=O)CCC2)C1c1cc2cc(OC)ccc2nc1F | MTCC 227 | MIC | broth dilution | 100 µg/mL
Cc1ccc[n+](CCCCC(C)CCCC(C)CCCC(C)C)c1.O=C([O-])C(F)(F)F | CCH442 | EC50 | - | 0.47 µM
CCOC(=O)/C=C\C(=O)OCC | ATCC 10231 | MIC | - | >100 µg/mL
CCOC(=O)C1=C(N)N(c2nc(-c3ccccc3)cs2)C2=C(C(=O)CCC2)C1c1cc2cc(C)ccc2nc1F | MTCC 227 | MIC | broth dilution | 250 µg/mL